Inhibition data for one molecule are collected here from PubChem BioAssay AID504621 (Broad Institute, 2011).

This is a selection; strong and weak results do not stand in their true shares. Calls of active or inactive are those of the source.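 How the source made its calls: active means every replicate shows inhibition above about 80%, whatever the replicate mean (limit read from the data); inconclusive means mean inhibition reaches the set limit but some replicate falls short; inactive means the rest.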

The term inhibition denotes the drop in the measured response relative to a control, in per cent.

The experiment in a line: growth inhibition of PfHsp90-expressing yeast, primary screen, antimalarial PfHsp90 inhibitor project, S. cerevisiae, BacTiter-Glo luminescence, single point, set 2 (AID 504621).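 Further: yeast relying on Plasmodium falciparum Hsp90 in place of its own; 0% = DMSO neutral controls and 100% = 20 µM radicicol positive controls.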 Conditions: BacTiter-Glo ATP, 48 h, at 9.4 µM, stronger effect = higher value, yeast lacking PDR1 and PDR3 efflux regulators.
In the case of `Cc1cc(C)cc(OP(C)(=O)Nc2ccc(SC(F)(F)F)cc2)c1` (stereo unspecified), the inhibition is inactive: -23.1%.
